PubChem BioAssay AID1259414, Drosophila RNAi Screening Center | 2018
Purpose: 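Genome-wide screen for host control of endosymbiont load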 (primary screen). System: Drosophila JW18 cells infected with Wolbachia. Reagents: long dsRNA against Drosophila genes, 0.25 µg dsRNA per well of a 384-well plate. Timing: 5 days. Treatment: cells persistently infected with Wolbachia before knock-down; no added drug. Read-out: 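Automated imaging of bacterial rRNA staining divided by host cell count, reported as plate-normalised robust z-score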. Direction: Wolbachia per cell robust z: higher = more Wolbachia per host cell than the plate typical. Hit rule: 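Hit when robust z is 1.5 or more, or -1.5 or less, in at least two of three replicates; excludes dsRNAs with several or no targets, genes not expressed in JW18 and well A1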.
The deposit covers about 24,000 reagents; below is a random part of those with a known target gene and a result. Over the whole deposit, about 1,210 (5%) were called active. 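Inactive calls also include excluded dsRNAs with several or no targets, genes unexpressed in JW18, and well A1, regardless of score.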 A plus sign joins genes that one reagent is predicted to hit.

predicted target | DRSC id | Wolbachia per cell robust z, rep 1 | Wolbachia per cell robust z, rep 2 | Wolbachia per cell robust z, rep 3 | outcome
m | DRSC20181 | -0.312 | 0.675 | 0.596 | inactive
m | DRSC29636 | 0.0269 | -1.78 | -1.42 | inactive
CG32668 | DRSC18879 | -0.824 | -1.18 | -1.02 | inactive
CG32847 | DRSC22901 | -0.933 | -1.89 | 0.123 | inactive
Orc5 | DRSC03390 | -0.0297 | -0.337 | -0.517 | inactive
Orc5 | DRSC28207 | 0.63 | 0.274 | -1.29 | inactive
snoRNA:U27:54Ea + snoRNA:U29:54Ed + snoRNA:U27:54Eb + 8 more | DRSC06458 | 0.59 | -5.67 | 0.569 | inactive
mRpL22 | DRSC19915 | -0.151 | -1.37 | -4.29 | inactive
mRpL22 | DRSC26399 | 0.451 | 0.118 | -0.163 | inactive
CG30098 | DRSC05605 | -0.241 | 0.392 | 1.35 | inactive
CG30098 | DRSC25946 | -0.758 | -0.54 | -0.0925 | inactive
Sgsh | DRSC14771 | 0.633 | 0.644 | -0.432 | inactive
CtBP | DRSC16617 | -0.328 | -0.144 | 0.375 | inactive
CtBP | DRSC23712 | 1.95 | 2.18 | -0.165 | active
cindr | DRSC14126 | -1.08 | -0.0512 | -1.74 | inactive
Acp76A | DRSC09665 | -1.29 | -0.508 | -1.97 | inactive
Acp76A | DRSC24824 | -0.919 | -1.71 | -0.176 | inactive
Acp76A | DRSC38974 | 0.594 | 1.24 | 2.13 | inactive
CG7691 | DRSC16287 | -1.29 | -4.83 | -0.322 | inactive
CG9570 | DRSC20687 | 0.868 | 0.0532 | 0.53 | inactive
CR31032 | DRSC22457 | 0.74 | 1.06 | 0.396 | inactive
CR31032 | DRSC25512 | 1.33 | 0.0401 | 0.994 | inactive
Bcs1 | DRSC02789 | -1.18 | 0.87 | 0.121 | inactive
5PtaseI | DRSC16269 | -2.65 | -0.98 | -0.236 | inactive
5PtaseI | DRSC22090 | -2.48 | 0.868 | 0.0106 | inactive
5PtaseI | DRSC28773 | -1.08 | -1.17 | -3.26 | inactive
Cka | DRSC03476 | -2.15 | -0.291 | 0.0441 | inactive
Cka | DRSC22858 | 0.727 | 1.44 | 0.645 | inactive
ksr | DRSC12379 | -3.04 | 0.658 | 1.19 | inactive
ksr | DRSC36701 | 0.697 | 0.163 | 0.0619 | inactive
CG42505 + CG31358 + CG42504 | DRSC15308 | -0.232 | -1.86 | -1.45 | inactive

11 entries from above, arranged by “Wolbachia per cell robust z, rep 2”, descending:
predicted target | DRSC id | Wolbachia per cell robust z, rep 1 | Wolbachia per cell robust z, rep 2 | Wolbachia per cell robust z, rep 3 | outcome
Acp76A | DRSC38974 | 0.594 | 1.24 | 2.13 | inactive
CR31032 | DRSC22457 | 0.74 | 1.06 | 0.396 | inactive
Bcs1 | DRSC02789 | -1.18 | 0.87 | 0.121 | inactive
5PtaseI | DRSC22090 | -2.48 | 0.868 | 0.0106 | inactive
CG9570 | DRSC20687 | 0.868 | 0.0532 | 0.53 | inactive
CR31032 | DRSC25512 | 1.33 | 0.0401 | 0.994 | inactive
Cka | DRSC03476 | -2.15 | -0.291 | 0.0441 | inactive
5PtaseI | DRSC16269 | -2.65 | -0.98 | -0.236 | inactive
5PtaseI | DRSC28773 | -1.08 | -1.17 | -3.26 | inactive
Acp76A | DRSC24824 | -0.919 | -1.71 | -0.176 | inactive
CG7691 | DRSC16287 | -1.29 | -4.83 | -0.322 | inactive

Further entries follow:
predicted target | DRSC id | Wolbachia per cell robust z, rep 1 | Wolbachia per cell robust z, rep 2 | Wolbachia per cell robust z, rep 3 | outcome
CG15293 | DRSC01919 | -0.472 | -0.161 | -0.747 | inactive
wcd | DRSC07051 | -0.306 | -0.229 | 0.428 | inactive
CG42326 | DRSC06483 | 0.853 | -2.02 | 0.476 | inactive
CG42326 | DRSC06484 | 0.32 | 0.0439 | 0.59 | inactive
CG42326 | DRSC24293 | -0.731 | -0.329 | 1.42 | inactive
CG32512 | DRSC20519 | -0.925 | 0.0432 | 0.548 | inactive
CG32512 | DRSC20551 | -0.603 | -1.56 | -1.66 | active
CG32512 | DRSC21401 | -0.17 | -1.18 | -0.211 | inactive
CG10347 | DRSC19352 | -0.756 | 0.595 | 0.518 | inactive
CG11449 | DRSC11662 | 0.671 | -1.62 | 1.33 | inactive
CG11449 | DRSC29180 | -2.96 | 0.646 | 0.000368 | inactive
CG17826 | DRSC10289 | -2.02 | -1.13 | -1.86 | inactive
CG17826 | DRSC28654 | -0.437 | -0.302 | -1.08 | inactive
CG17826 | DRSC39050 | -1.23 | -1.34 | -0.973 | inactive
Or47a | DRSC07491 | 0.975 | 0.285 | -0.979 | inactive
CG9593 | DRSC16508 | 0.597 | 0.807 | -0.515 | inactive
CG13838 | DRSC14688 | -0.398 | 0.618 | -3.15 | inactive
CG13838 | DRSC29055 | -3.97 | -0.552 | -2.08 | inactive
CG13024 | DRSC09904 | 0.76 | -0.562 | 0.671 | inactive
CG13024 | DRSC29921 | 1.49 | 0.544 | 1.25 | inactive
CG3511 | DRSC04382 | -0.248 | -0.564 | -0.934 | inactive
CG3511 | DRSC28281 | 0.815 | 0.782 | 1.66 | inactive
CG5033 | DRSC07410 | 0.478 | -0.177 | -0.0214 | inactive
CG5033 | DRSC27783 | -2.45 | -0.0165 | -0.166 | inactive
Tsp42Er | DRSC06183 | 0.0736 | -2.16 | -0.845 | inactive
CG34199 | DRSC05867 | -0.0584 | 1.03 | 0.507 | inactive
CG34199 | DRSC28143 | -1.17 | 0.268 | 0.0382 | inactive
MTF-1 | DRSC11217 | 1.12 | 0.903 | -0.916 | inactive
MTF-1 | DRSC21341 | 0.0984 | 0.762 | -0.976 | inactive
uri | DRSC04111 | -0.66 | 0.0602 | -3.23 | inactive
uri | DRSC25077 | 0.547 | 1.4 | 0.981 | inactive
CG17928 | DRSC02644 | -0.349 | -0.0597 | -4.09 | inactive
CR41454 | DRSC41334 | 0.15 | 0.337 | -0.133 | inactive
CG13070 | DRSC09953 | 0.269 | 1.37 | 0.637 | inactive
twr | DRSC12491 | -1.33 | -0.0638 | -2.57 | inactive
Nadk1b | DRSC06964 | -0.788 | -1.02 | -2.77 | inactive
Nadk1b | DRSC06965 | 1.18 | -0.444 | 0.537 | inactive
Nadk1b | DRSC25741 | -1.64 | -0.233 | -1.02 | inactive
